Test system: panel of fungi
Assay: broth microdilution assay against a panel of fungi
Conditions: MIC and MFC

| Compound | effectiveness compared with amphotericin B |
| --- | --- |
| C=CC1C(=C)CCC2C1CC1OC(=O)C3(C)C(O)CCC2(C)C13O (centres unmarked) [Compound I] | effective at concentrations comparable to an established antifungal agent, amphotericin B |
| C=CC1=CCC2C(CC3OC(=O)C4(C)C(O)CCC2(C)C34O)C1C (centres unmarked) [Compound II] | effective at concentrations comparable to an established antifungal agent, amphotericin B |

— patent US5543429A, “Antifungal agents” (Merck & Co., Inc., priority 1995, dated 1996)
